Laboratory results from patent US20090318341A1.

Columns and labels:
[1] = target: human Kv1.1 channel (human) (UniProt Q09470); assay: cell-based or functional assay
[2] = target: human Kv1.3 channel (human) (UniProt P22001); assay: cell-based or functional assay

Row | Substance | hKv1.1: IC50 [pM], block of K+ current, whole cell patch clamp [1] [pM] | fold loss of potency against synthetic OSK1 [2] [fold]
1 | Fc-L10-OSK1[K7S, E16K, K20D] (Fc fusion) | 10000 | –
2 | Fc-L10-OSK1[K7S] (Fc fusion) | 100000 | 10
